Source: patent US20120219500A1, “DIAGNOSTIC AGENT FOR INFECTIOUS DISEASES” (FUJIFILM RI PHARMA CO., LTD., priority 2009, published 2012)

Test system: each bacterium
Assay: uptake by the method of Example 2 with metronidazole added
Conditions: metronidazole added to achieve 1.5 mM before incubation at 37° C.

| SMILES | reduction of the rate of uptake by added metronidazole [%] |
| --- | --- |
| O=C(NCCn1ccnc1[N+](=O)[O-])c1cccc(I)c1 [Compound 2, N1-[2-(2-nitro-1H-1-imidazolyl)ethyl]-3-iodobenzamide] | 42 |
| Cc1ncc([N+](=O)[O-])n1CCNC(=O)c1cccc(I)c1 [Compound 1, [^125I]N1-[2-(2-methyl-5-nitro-1H-1-imidazolyl)ethyl]-3-iodobenzamide] | 71 |
